The source of these data is publication PMC13630248 (PLOS Biology, 2026).

Assay [1] deals with RP3/2004 Spike, full-length, on the cell surface (bat coronavirus Rp3/2004, UniProt Q3I5J5). To be noted: one partner purified.
The target of assay [2] is SARS-CoV-2 RBD (recombinant receptor binding domain of Spike) (SARS-CoV-2, UniProt P0DTC2). Conditions: both partners purified.

B1: VA14_26 IgG (antibody, V domains shown)
VH: QVQLQQWGAGLLKPSDTLSLTCGISGGPFSGYYWSWIRQPPGKGLEWLGEINHSGITTYNPSLKSRGTISVDTSKRQISLKLASVTAADTAVYYCARFAYGDYGWDYSSDMDVWGKGTTVTVSS
VL: DIQLTQSPSTLSASVGDRVTITCRASQSISTWLAWHQQIPGKAPKLLIYRASTLQSGVPSRFSGSGSGTEFTLTISSLQPDDFATYYCQQYYSVRTFGQGTKVDIK
notes: copies: 2 + 2
Turning to B1, in assay [1], the binding result is on record as “binds”.

B2: V1WT_41 IgG (antibody, V domains shown)
VH: QVQLQESGPGLVKPSETVSVTCTVSGGSITRSNYYWGWIRQPPGKGLEWIGSIFYNGNTNYNPSLKSRLTISVDTSKNQFSLKLSSVTAADTAVYYCARTAPYYYDRSGYYQKEEYFQRWGQGTLVTVSS
VL: EIVMTQSPSTLSASVGDRVTITCRASQSISTWLAWYQQKPGKAPNLLIYQASSLESGVPSRFSGSGSGTEFTLTISSLQPDDFATYYCQQYNNYPRTFGQGTKLEIK
notes: copies: 2 + 2
Consider B2, for which the binding result in assay [1] was “binds”.

B3: V1WT_06 IgG (antibody, V domains shown)
VH: EVQLVQSGAEVKKPGASVKVSCKASGYTFSSHGISWVRQAPGQGLEWMGWISTYNGNTNSAQNLQGRVTMTADTSTSTAYMELRSLRSDDTAVYYCARGPWGYCSGTSCYYWTPDNPAYSYHGMDVWGQGTTVTVSS
VL: not shown
notes: copies: 2 + 2
Consider B3, for which the binding result in assay [1] was “binds”. Moreover, in assay [2], the “fold increase in binding by ELISA, IgG over Fab” value was 1.3 fold.
